Data on 42 molecules can be found in patent US20140206628A1 (University of Washington, published 2014).

For orientation: Kd means the concentration at which binding is half-saturated. Higher therefore signals weaker binding. In general, kon refers to the second-order rate constant of association. Read a low kon as slow association. A word on the EC50 (read off the curve): it is the concentration giving half of the maximal effect. A low value points to a more potent agent.

B1: HB80 [change] (designed binder)
chain: MASTRGSGRPWDFSENLAFELALAFTNKDTPDRWANVAQYVSGRTPEEVKKHYEILVEDIKYIESGKVPFPNYRTTGGNMKTDEKRFRNLKIRLE
B2: HB80 [change] (designed binder)
chain: B1 chain with T26M, N36K
B3: HB80 [change] (designed binder)
chain: B1 chain with T26V
B4: HB36 [change] (designed binder)
chain: MSNAMDGQQLNRLLLEWIGAWDPFGLGKDAYDVEAEAVLQAVYETEDAFDLAMRIMWIYTFAFNRPIPFPHAQKLARRLLELKQAASSPLPLE
B5: HB36.2 ([change]) (designed binder)
chain: B4 chain with T60V
B6: HB80, original design (designed binder)
chain: B1 chain with T26M
B7: HA Binder 36 (HB36), original design (designed binder)
chain: B4 chain with T60A
B8: HB36.3 (Asp47Ser, Ala60Val) (designed binder)
chain: B4 chain with D47S, T60V
B9: HB36.4 (Asp47Ser, Ala60Val, Asn64Lys) (designed binder)
chain: B4 chain with D47S, T60V, N64K
B10: HB80.2 ([change], [change], Delta54-95) (designed binder)
chain: MASTRGSGRPWDFSENLAFELALAFTNKDTPDRWAKVAQYVSGRTPEEVKKHYE
B11: HB36 clone D3 ([change], [change]) (designed binder)
chain: B4 chain with G7S, D47N, T60A
B12: HB36 clone B2 ([change]) (designed binder)
chain: B4 chain with D47E, T60A
B13: HB36 clone A2 ([change], [change], [change]) (designed binder)
chain: B4 chain with D47L, T60A, P68L, P70L
B14: HB36 clone C4 ([change], [change]) (designed binder)
chain: B4 chain with D47H, T60A, P70S
B15: HB36 clone B6 ([change]) (designed binder)
chain: B4 chain with D47W, T60A
B16: HB36 clone B3 ([change]) (designed binder)
chain: B4 chain with D47R, T60A
B17: HB36 clone A4 ([change], [change]) (designed binder)
chain: B4 chain with D47R, T60A, P70L
B18: HB36 clone E1 ([change], [change]) (designed binder)
chain: B4 chain with G19C, D47Y, T60A
B19: HB36 clone C3 ([change]) (designed binder)
chain: B4 chain with D47H, T60A
B20: HB80.3 (Asp12Gly, Ala24Ser, Met26Thr, Asn36Lys, Delta54-95) (designed binder)
chain: B10 chain with D12G, A24S
B21: HB80.1 [change] (designed binder)
chain: B1 chain with F13A, N36K
B22: HB80.1 [change] (designed binder)
chain: B1 chain with N36K, Y40A
B23: HB80.1 [change] (designed binder)
chain: B1 chain with F25A, N36K
B24: HB36.3 [change] (designed binder)
chain: B4 chain with D47S, W57A, T60V
B25: HB36.3 [change] (designed binder)
chain: B4 chain with D47S, F49A, T60V
B26: HB36.3 [change] (designed binder)
chain: B4 chain with D47S, M53A, T60V
B27: HB80.3_s4_E90 (designed binder)
chain: B10 chain with D12K, L17V, A24Y, A35T, Q39R, S42K
B28: HB80.3_s4_E87 (designed binder)
chain: B10 chain with D12K, L17I, A24Y, A35K, Q39R, S42K
B29: HB80.3_s4_E85 (designed binder)
chain: B10 chain with D12G, L17I, A24Y, A35G, Q39R, S42R
B30: HB80.3_s4_E83 (designed binder)
chain: MASTRGSGRPWGFRENIAFEIALYFTNKDTPDRWRKVARYVKGRTPEEVKKHYE
B31: HB80.3_02 (designed binder)
chain: B30 chain with G12K, R14S, Y24S, R35K, R39Q
B32: HB80.3_s4_E92 (designed binder)
chain: B30 chain with G12K, R14S, I17V, Y24S, K42R
B33: HB80.3_s4_E88 (designed binder)
chain: MASTRGSGRPWKFKENLEFEIALSFTNKDTPDRWKKVAYYVRGRTPEEVKKHYE
B34: HB80.3_s4_E81 (designed binder)
chain: B33 chain with K12R, K14S, L17V, E18A, Y39R
B35: HB80.3_s4_E98 (designed binder)
chain: B10 chain with D12R, L17V, L21I, A24S, Q39R, S42R
B36: HB80.3_s4_E84 (designed binder)
chain: B30 chain with G12R, R14S, I17V, Y24S, K42R
B37: HB80.3_s5_E01 (designed binder)
chain: MASTKGSGKPWKFSENVAFEIALSFTNKDTPDRWRKVARYVRGKTPEEVKKHYE
B38: HB80.3_s4_E99 (designed binder)
chain: B10 chain with D12K, A24Y, Q39Y, S42K
B39: HB80.3_s4_E86 (designed binder)
chain: B30 chain with G12K, R14S, I17V, I21L, R35K
B40: HB80.3_s4_E96 (designed binder)
chain: B37 chain with K5R, K9R, R39Y, K44R
B41: HB80.3_s4_E93 (designed binder)
chain: B10 chain with D12K, L17V, A24Y, A35G, S42R
B42: HB80.3_s4_E100 (designed binder)
chain: B30 chain with G12R, R14S, I17V, Y24S, R35K

Where a chain is given by its changes, count along the chain named. “And” between values parts separate entries of the source, which are not always exact repeats. Identical values can stand only once.

For one assay, the target named is T1, A/South Carolina/1/1918 (H1N1) hemagglutinin ectodomain, biotinylated (Influenza A virus A/South …).
Consider B1, for which the “fold improvement of affinity relative to HB80” value was greater than 10 fold. Consider B2, for which the “fold improvement of affinity relative to HB80” value was greater than 10 fold.

With B3, the “fold improvement of affinity relative to HB80” value was greater than 10 fold. In the case of B4, the “fold improvement of affinity relative to HB36” value is greater than 10 fold and the “fold increase of apparent binding affinity relative to HB36” value was determined as 25 fold. Regarding B5, the “fold improvement of affinity relative to HB36” value is greater than 10 fold and the “fold increase of apparent binding affinity relative to HB36” value was 25 fold.

The next assay concerns the target T1, A/South Carolina/1/1918 (H1N1) …. The source holds these as a separate data set.
For the molecule B1, the dissociation constant Kd was 0.1 µM. In other words, the sub-micromolar range.

For the molecule B6, the dissociation constant Kd was greater than 5 µM. Molecule B2 returned a dissociation constant Kd of 0.3 µM. B7: the dissociation constant Kd was 0.2 µM and > 2 µM. Still for that read-out and setting: the figure for B8 is 0.004 µM and 0.029 µM. As for B9, the “apparent Kd (pooled screen)” value is 0.004 µM and 0.022 µM.

On to B5, for which the affinity, expressed as Kd, was 0.008 µM. In other words, the single-digit nanomolar range. B10 yielded a Kd of 0.005 µM.

The target is the same in the next assay. The source holds these as a separate data set.
In the case of B11, the Kd is 0.005 to 0.015 µM. B12 showed an equilibrium dissociation constant (Kd) of 0.015 to 0.04 µM. The molecule B13 displayed a dissociation constant (Kd) of 0.005 to 0.015 µM.

B14 displayed a Kd of 0.002 to 0.005 µM. The same measure, in the same setting: in the case of B15 it was 0.005 to 0.015 µM; in that of B16, 0.015 to 0.04 µM. The same measure, in the same setting: the figure for B17 is 0.005 to 0.015 µM; for B18 it is 0.005 to 0.015 µM; for B19 it is 0.002 to 0.005 µM.

Another assay has the same target. The source holds these as a separate data set.
Regarding B8, binding was put at a Kd of 0.029 µM and the kon came to 1.2e+06 M⁻¹ s⁻¹. In the case of B9, the “apparent Kd (pooled screen)” value stood at 0.0223 µM, the “apparent koff (pooled screen)” value was found to be 0.007 s⁻¹ and the “apparent kon (pooled screen)” value turned out to be 320000 M⁻¹ s⁻¹. As to B20, the “apparent Kd (pooled screen)” value came to 0.038 µM, the “apparent koff (pooled screen)” value is 0.039 s⁻¹ and the “apparent kon (pooled screen)” value turned out to be 1e+06 M⁻¹ s⁻¹.

For the next assay the target is unchanged. This is another data set of the same source.
Turning to B21, the ΔΔG was greater than 12.1 kJ/mol. Turning to B22, the affinity, expressed as Kd, was 0.14 µM and the ΔΔG worked out at 7.11 kJ/mol. As for B23, the ΔΔG is greater than 12.1 kJ/mol. Still for that read-out and setting: in the case of B24 it was greater than 14.2 kJ/mol. For the molecule B8, the Kd came to 0.005 µM. B25 came in with a ΔΔG greater than 14.2 kJ/mol. Take B26: the dissociation constant Kd is 0.115 µM and the ΔΔG worked out at 7.53 kJ/mol.

The next assay shares this target. This is another data set of the same source.
In the case of B27, the binding result is “binds”. B28: the binding result is listed as “binds”. On to B29, for which the binding result is on record as “binds”. For B30, the binding result was “binds”. Same read-out and setting: the entry for B31 is “binds”. As for B32, the binding result is given as “binds”. On the same count and under the same terms, the entry for B33 is “binds”; for B34 it is “binds”; for B35 it is “binds”. Turning to B36, the binding result was “binds”. The same measure, in the same setting: the entry for B37 is “binds”.

With B38, the binding result was “binds”.

For B39, the binding result is on record as “binds”. In the case of B40, the binding result is reported as “binds”. Same read-out and setting: in the case of B41 it was “binds”. Turning to B42, the binding result is “binds”.

Another assay has the same target. The source holds these as a separate data set.
B9: the half-maximal effective concentration (EC50 (read off the curve)) was roughly 0.005 µM.

The next assay shares this target. The source holds these as a separate data set.
On to B20, for which the “EC50 (read off the curve)” value was roughly 0.003 µM.
